# Data source: PubChem BioAssay AID504761 (Drosophila RNAi Screening Center, 2011)
# Test: 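Insect host genes that dengue virus relies on to spread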 (primary screen)
# System: D.Mel-2 cells from Drosophila
# Reagent: long dsRNA against Drosophila genes
# Conditions: infection with dengue virus type 2; dose and infection time not stated
# Measured: 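Per well on two replicate plates, imaging gave the percent of cells positive for viral envelope protein, ranked by infection, and a nuclear count of cells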
# Reading the numbers: infection score: higher = more virus-infected cells; cell count: higher = more cells in the well
# Hit rule: 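Low infection ranks in the two replicates (chance level up to 0.065) followed by a retest with a 1.5-fold or larger significant decrease, p below 0.05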
# Calls: active = confirmed: knock-down lowers infection; inactive = not picked or not confirmed
# The deposit covers about 22,000 reagents; this is a random part of those that have a named target and a result. Of all reagents, 116 (0.52%) got an active call. 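Calls depend on retest data that are not deposited; infection was ranked per plate without normalising between plates; the unit of the infection score is not given.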 Raw values vary from plate to plate and are shown uncorrected. A number with no mark means an inactive call. Reagents against one gene are numbered here. A plus sign joins genes that one reagent is predicted to hit. Not given: the amount of reagent, the time to read-out.
"infection score, replicate 1","infection score, replicate 2","cell count, replicate 1","cell count, replicate 2",target,dsRNA no.
1.1,1.22,6437,6898,CG1648,1
6.33,34.2,6764,5469,CG1648,2
10.9,,3196,298,CG14245,1
29.3,8.28,5344,2005,CG30195,1
39.5,2.71,6077,6375,yellow-b,1
0.09 (active),0.01,6999,6940,CG32642,1
11.2,7.8,6423,5926,CG32642,2
10.9,1.66,6307,6217,CG5122,1
7.45,8.74,6177,5617,Akap200 (A kinase anchor protein 200),1
16.1,12.9,5985,6829,DNAlig3 (DNA ligase 3),1
12.2,28.3,4548,4055,DNAlig3 (DNA ligase 3),2
3.61,5.23,6423,6499,CR10032 (pseudo),1
9.52,3.93,6558,6688,CR10032 (pseudo),2
2.39,16.6,6515,6439,Cad74A (Cadherin 74A),1
6.51,9.63,6635,6522,Cog1 (Component of oligomeric golgi complex 1),1
2.17,1.33,6370,6034,ms(3)76Ba (male sterile (3) 76Ba),1
5.34,13.1,786,1497,CG42724,1
4.16,3.78,4475,4284,CG42724,2
8.07,5.53,5885,5512,CG42724,3
7.08,17.3,6133,4674,CG42724,4
1.65,6.95,6011,6729,Tl (Toll),1
4.84,9.87,5948,6524,RAF2 (RING-associated factor 2),1
1.33,1.38,5577,6079,RAF2 (RING-associated factor 2),2
1.75,10.1,6297,5947,RAF2 (RING-associated factor 2),3
2.38,1.97,6811,6802,Dna2 (DNA replication helicase/nuclease 2),1
1.92,3.21,6563,6101,CG10936,1
6.62,3.47,6144,6026,CG10936,2
3.83,15.8,6033,6539,CG10936,3
19.3,11.2,6192,4651,CG34168,1

Ordered by “infection score, replicate 2” (descending): 9 of the entries above.
"infection score, replicate 1","infection score, replicate 2","cell count, replicate 1","cell count, replicate 2",target,dsRNA no.
7.08,17.3,6133,4674,CG42724,4
3.83,15.8,6033,6539,CG10936,3
1.75,10.1,6297,5947,RAF2 (RING-associated factor 2),3
4.84,9.87,5948,6524,RAF2 (RING-associated factor 2),1
1.65,6.95,6011,6729,Tl (Toll),1
6.62,3.47,6144,6026,CG10936,2
1.92,3.21,6563,6101,CG10936,1
2.38,1.97,6811,6802,Dna2 (DNA replication helicase/nuclease 2),1
1.33,1.38,5577,6079,RAF2 (RING-associated factor 2),2

The results go on:
"infection score, replicate 1","infection score, replicate 2","cell count, replicate 1","cell count, replicate 2",target,dsRNA no.
3.3,14.4,727,1494,CkIIalpha (casein kinase IIalpha),1
2.16,9.63,6531,6467,repo (reversed polarity),1
9.55,12.4,6063,6965,repo (reversed polarity),2
1.54,2.19,6497,6116,CG13033,1
5.11,6.71,6024,6276,CG13033,2
2.53,17.1,830,2683,SIDL (Shal Interactor of Di-Leucine Motif),1
6.25,7.02,5315,4444,Map60 (Microtubule-associated protein 60),1
4.52,4.63,5952,6270,Dred (Dctn1-related),1
15.2,5.54,1803,6716,Dred (Dctn1-related),2
23.4,13,2791,2905,CCT5 (Chaperonin containing TCP1 subunit 5),1
5.65,5.83,5260,4890,CCT5 (Chaperonin containing TCP1 subunit 5),2
10.4,7.36,5654,5934,CG17211,1
2.48,3.51,6620,6676,Aven (Apoptosis and caspase activation inhibitor),1
9.67,5.94,6134,6571,CG11655,1
5.8,7.18,6864,6987,CG17490,1
2.95,5.19,6545,6182,CG17490,2
4.95,3.42,5518,6382,RtcB (RtcB RNA ligase),1
2.81,2.58,7268,6757,yellow-d,1
14.8,36.3,6208,5775,yellow-d,2
1.6,3.33,6190,6194,Baldspot,1
1.94,1.09,6032,5326,CG31125,1
2.84,5.46,6796,6978,CG31125,2
9,5.23,6625,6595,CG13581,1
15.1,7.3,6209,6908,CG34107,1
3.11,11.5,6499,6578,park + Targ3,1
2.08,3.83,6305,6679,CG11113,1
0.89,1.09,6518,6499,IntS14 (Integrator 14),1
0.87,3.83,6231,6600,CG17198 + CG17197,1
2.7,8.64,6070,5483,CG17198 + CG17197,2
3.04,5.34,5981,5617,CG31769,1
0.98,0.87,6766,6698,CR31700 (pseudo),1
18.6,21.6,5696,5989,MED4 (Mediator complex subunit 4),1
7.67,2.73,6388,2450,MED4 (Mediator complex subunit 4),2
10.7,4.61,7324,6686,CG18858 + CG31683,1
10.2,9.43,6265,6033,HP4 (Heterochromatin protein 4),1
0.68,7.67,6138,5865,PGRP-LD + Cralbp + Pmi,1
,17.7,426,5181,AIMP2 (aaRS-interacting multifunctional protein 2),1
18.3,0.66,6436,6865,AIMP2 (aaRS-interacting multifunctional protein 2),2
3.72,5.55,6429,6286,CG34229,1
1.77,0.87,6439,6469,lbl (ladybird late),1
2.01,0.28,6081,5655,CG4763,1
4.84,8.34,6591,6435,CG4763,2
6.27,14.5,1995,6952,CG6553,1
25.8,12,6358,6297,Tango6 (Transport and Golgi organization 6),1
,8.37,334,5200,Tango6 (Transport and Golgi organization 6),2
